# Test results taken from PMC6928861.
# Legend:
# P10636 [1] = test: native MS; 35 µM Tau with 1.1 mM CaCl2, pH 7.4, 1 mM DTT, 0.5 mg/mL heparin sodium salt, 50 mM NaCl, 1 mM PMSF, 37 °C, agitation 800 rpm, 0 h to 168 h; analysed in 100 mM ammonium bicarbonate pH 7.2; peak fitting and deconvolution into monomers, 2-9-mers and >10-mers
# P10636 [2] = test: native MS; 35 µM Tau with 1.1 mM ZnCl2, pH 7.4, 1 mM DTT, 0.5 mg/mL heparin sodium salt, 50 mM NaCl, 1 mM PMSF, 37 °C, agitation 800 rpm, 0 h to 168 h; analysed in 100 mM ammonium bicarbonate pH 7.2; peak fitting and deconvolution into monomers, 2-9-mers and >10-mers
substance,measurement,setting,value
full-length human Tau protein (hTau441),"percent of overall species that are larger aggregates, with Ca^2+, at the end point (168 h)",P10636 [1],reaching ~15% of the overall species at the end point
same,"percent of total species that are larger aggregates, with Zn^2+, along the reaction (to 168 h)",P10636 [2],The formation of larger Tau aggregates steadily increases up to 35% of total species along the reaction
